Measured values from several laboratories, pooled; numbers as filed in NIAID ChemDB.

Shared fields: whole-cell or culture tests; organism: Mycobacterium tuberculosis

Lines come from different laboratories, so protocols vary. a–b is a range or a potency band. MIC bound comes from a single tested concentration. A number after MIC or MFC names an inhibition level or a share of isolates. An empty or dashed field is not shown. Percent inhibition refers to the dose given; in toxicity tests it is the harm to the cells. ECn: concentration that inhibits the pathogen or its effect by n%.

SMILES,read-out,tested at,cell line,read by,strain or isolate,conditions,result
O=C(O)CNC(=O)CN1C(=O)CC(NC(=O)OCc2ccccc2)C1=O,inhibition,12.5 µg/mL,,BACTEC,H37Rv,,23%
CNC(=S)N=Nc1c(O)n(CN2CCOCC2)c2ccc(OC(F)(F)F)cc12,EC50,,,broth dilution / resazurin,H37Rv,,1.566 µg/mL
CSc1nc(Nc2ccccc2Cl)cc(C(=O)O)n1,MIC bound,,,BACTEC,H37Rv,,>12.5 µg/mL
Cn1c(=O)cc(Oc2nc(Nc3ccc(C#N)cc3)nc(Nc3nc4ccc(F)cc4s3)n2)c2ccccc21,MIC,,,agar,,,25 µg/mL
CC(=O)c1c(C)n([O-])c2ccc(Cl)cc2[n+]1=O,EC50,,,,H37Rv,inside macrophages,<2.44 µg/mL
CCC(=O)N/N=C(\C=C\c1cccc(O)c1)c1sc(Nc2ccc(C)cc2[N+](=O)[O-])nc1C,MIC bound,,,resazurin,H37Rv,,>6.25 µg/mL
CCCCNc1nc(-c2ccc(C)cc2)c(C#N)c(=O)[nH]1,MIC,,,,H37Ra,,>50 µg/mL
CC(C)c1ccc(C2=NO[C@]3(O2)/C(=C/c2ccc(Cl)cc2Cl)CN([C@H](C)c2ccccc2)C[C@@]32ON=C(c3ccc(C(C)C)cc3)[C@@H]2c2ccc(Cl)cc2Cl)cc1,MIC,,,,H37Rv,,14.89 µM
C/C=C1\CN2CC[C@]34C(=C(C(=O)OC)[C@H]1C[C@H]23)Nc1ccc(O)cc14,MIC bound,,,BACTEC,H37Rv,,>12.5 µg/mL
Cc1ccc2nc(Nc3nc(Nc4ccc(C#N)cc4)nc(Oc4cc(=O)n(C)c5ccccc45)n3)sc2c1,MIC,,,agar,,,250 µg/mL
CCN(CC)CCCC(C)Nc1nc(-c2ccc(C)cc2)c(C#N)c(=O)[nH]1,MIC,,,,H37Ra,,>50 µg/mL
CC(CCc1nc(C#N)c(N)o1)[C@H]1CC[C@H]2[C@@H]3CCC4C[C@@H](O)CC[C@]4(C)[C@H]3C[C@@H](O)[C@]12C,MIC bound,,,resazurin,H37Rv,,>6.25 µg/mL
CO[C@H]1/C=C/O[C@@]2(C)Oc3c(C)c(O)c4c(O)c(c(/C=N/N5CCN(C)CC5)c(O)c4c3C2=O)NC(=O)/C(C)=C\C=C\[C@H](C)[C@H](O)[C@@H](C)[C@@H](O)[C@@H](C)[C@H](OC(C)=O)[C@@H]1C,MIC,,,,98596,,≥2 µg/mL
Fc1ccccc1-n1ncc(C(c2ccccc2)n2ccnc2)c1-c1ccccc1,MIC90,,,,ATCC 27294,,>100 µM
O=C(Cc1c[nH]c2ccccc12)NNCc1ccc(N(CCCl)CCCl)cc1,MIC bound,,,BACTEC,H37Rv,,>12.5 µg/mL
COc1ccc2nc(Nc3nc(Nc4ccc(C#N)cc4)nc(Oc4cc(=O)n(C)c5ccccc45)n3)sc2c1,MIC,,,agar,,,62.5 µg/mL
Nc1ccc2c(c1)[nH]c(=O)c1ccc(Cl)cc12,inhibition,12.5 µg/mL,,BACTEC,H37Rv,,87%
Fc1ccccc1-c1c(C(c2ccccc2)n2ccnc2)cnn1-c1ccccc1,MIC50,,,,ATCC 35837 (ethambutol-resistant),,≥100 µM
Oc1[nH]c2ccc(OC(F)(F)F)cc2c1N=NC(=S)NCc1ccccc1,EC90,,,broth dilution / resazurin,H37Rv,,>100 µg/mL
C[C@H](c1ccccc1)N1C/C(=C\c2ccc(Cl)cc2Cl)[C@@]2(ON=C(c3ccccc3)O2)[C@@]2(C1)ON=C(c1ccccc1)[C@@H]2c1ccc(Cl)cc1Cl,MIC,,,,MDR-TB,,0.53 µM
COc1ccc(N2CCN(Cc3c(C(C)=O)[n+](=O)c4ccccc4n3[O-])CC2)cc1,EC50,,,BACTEC,H37Rv,,>6.25 µg/mL
Oc1ccc(Cl)c2cccnc12,MIC90,,,,20 isolates drug-resistant,,0.25 µg/mL
C[C@H](c1ccccc1)N1C/C(=C/c2ccc(Cl)cc2Cl)[C@]2(ON=C(c3ccc(Cl)cc3)O2)C2(C1)ON=C(c1ccc(Cl)cc1)[C@H]2c1ccc(Cl)cc1Cl,MIC,,,,H37Rv,,0.95 µM
CN(C)NP(=S)(c1ccccc1)c1ccccc1,inhibition,12.5 µg/mL,,BACTEC,H37Rv,,0%
C[C@H](c1ccccc1)N1C[C@@]2(ON=C(c3ccc(Cl)cc3)[C@H]2c2ccc(Cl)cc2Cl)C2(ON=C(c3ccc(Cl)cc3)O2)[C@]2(C1)ON=C(c1ccc(Cl)cc1)[C@H]2c1ccc(Cl)cc1Cl,MIC,,,,H37Rv,,0.8 µM
Fc1ccc(-c2c(C(c3ccccc3)n3ccnc3)cnn2-c2ccc(F)cc2F)cc1,MIC90,,,,ATCC 35820 (streptomycin-resistant),,≥100 µM
N#Cc1c(-c2ccc(F)cc2)nc(N2CCOCC2)[nH]c1=O,MIC,,,,H37Ra,,>50 µg/mL
CNC(=S)N=Nc1c(O)[nH]c2ccc(OC(F)(F)F)cc12,EC50,,,broth dilution / resazurin,H37Rv,,1.311 µg/mL
C[C@H](c1ccccc1)N1C/C(=C/c2ccccc2Cl)[C@]2(ON=C(c3ccc(Cl)cc3)O2)C2(C1)ON=C(c1ccc(Cl)cc1)[C@H]2c1ccccc1Cl,MIC,,,,MDR-TB,,2.06 µM
Oc1c(N=NC(=S)Nc2ccc(F)cc2)c2cc(OC(F)(F)F)ccc2n1CN1CCOCC1,EC50,,,broth dilution / resazurin,H37Rv,,2.329 µg/mL
OCCSCc1cc2c(O)c(c1)Cc1cc(CSCCO)cc(c1O)Cc1cc(CSCCO)cc(c1O)Cc1cc(CSCCO)cc(c1O)C2,inhibition,12.5 µg/mL,,BACTEC,H37Rv,,16%
CC(=O)c1c(C)[nH]c(C(=O)N/N=C/c2ccc(C)cc2)c1C,MIC,,,resazurin,H37Rv,,<6.25 µg/mL
CCNC(=S)N=Nc1c(O)n(CN2CCOCC2)c2ccc(OC(F)(F)F)cc12,EC90,,,broth dilution / resazurin,H37Rv,,>100 µg/mL
CC(C)CN.CC(C)CNC(=S)S,inhibition,12.5 µg/mL,,BACTEC,H37Rv,,83%
Fc1ccc(-c2c(C(c3ccccc3)n3ccnc3)cnn2-c2ccc(F)cc2)cc1,MIC90,,,,ATCC 35828 (pyrazinamide-resistant),,≥100 µM
CN(C)c1ccc(-c2nc(NCCN3CCOCC3)[nH]c(=O)c2C#N)cc1,MIC,,,,H37Ra,,>50 µg/mL
CC1COc2c(N3CCN(C)CC3)c(F)cc3c(=O)c(C(=O)O)cn1c23,MIC50,,,,ATCC 35820 (streptomycin-resistant),,0.6 µM
Cc1ccc2c(c1)c(N=NC(=S)Nc1cccc(Br)c1)c(O)n2C,EC50,,,broth dilution / resazurin,H37Rv,,5.495 µg/mL
N#Cc1c(-c2cccnc2)nc(NCCN2CCOCC2)[nH]c1=O,MIC,,,,H37Ra,,25–50 µg/mL
CN=S(=O)(CC1(O)CC2OC1C1OC(C)(C)OC21)c1ccccc1,inhibition,12.5 µg/mL,,BACTEC,H37Rv,,0%
O=c1oc2ccc(-c3ccccc3)cc2c(O)c1N=Nc1ccc(F)cc1,MIC,,,resazurin,H37Rv,,<6.25 µg/mL
COc1ccc(-c2nc(C)nc3c2Cc2c(ccc4ccccc24)O3)cc1,MIC bound,,,BACTEC,H37Rv,,>12.5 µg/mL
NCC[C@H](O)C(=O)N[C@@H]1C[C@H](N)[C@@H](O[C@H]2O[C@H](CN)[C@@H](O)[C@H](O)[C@H]2O)[C@H](O)[C@H]1O[C@H]1O[C@H](CO)[C@@H](O)[C@H](N)[C@H]1O,MIC,,,,1S,,2.5 µg/mL
Clc1ccc(-n2ncc(C(c3ccccc3)n3ccnc3)c2-c2ccccc2)cc1,MIC90,,,,ATCC 35822 (isoniazid-resistant),,≥100 µM
CNC(=S)N=Nc1c(O)n(C)c2ccc(OC(F)(F)F)cc12,EC50,,,broth dilution / resazurin,H37Rv,,>100 µg/mL
Cc1ccc2c(c1)[n+](=O)c(C(=O)c1ccccc1)c(C)n2[O-],inhibition,6.25 µg/mL,VERO,BACTEC,H37Rv,,44%
Cn1c(=O)cc(Oc2nc(Nc3ccc(C#N)cc3)nc(Sc3nc4ccccc4s3)n2)c2ccccc21,inhibition,100 µg/mL,,agar,,,96%
Cc1cn([C@H]2CC[C@@H](CO)C2)c(=O)[nH]c1=O,inhibition,12.5 µg/mL,,BACTEC,H37Rv,,-7%
C[C@H](c1ccccc1)N1C/C(=C\c2ccc(Cl)cc2)[C@@]2(ON=C(c3ccc(Cl)cc3)O2)[C@@]2(C1)ON=C(c1ccc(Cl)cc1)[C@@H]2c1ccc(Cl)cc1,MIC,,,,MDR-TB,,1.03 µM
CC(=O)NC[C@H]1CN(c2ccc(N3CCOCC3)c(F)c2)C(=O)O1,MIC,,,,5R,,0.5 µg/mL
O=c1[nH]c2cc([N+](=O)[O-])ccc2c(O)c1N=Nc1ccc(Cl)c(F)c1,inhibition,6.25 µg/mL,,resazurin,H37Rv,,70%
N#Cc1c(-c2ccc(F)cc2)nc(NCc2ccccc2)[nH]c1=O,MIC,,,,H37Ra,,>50 µg/mL
CC1CC(C)(O)C2C3(C)C(=O)C34CCCC3(CC23C12CCC1(CCOC1=O)O2)O4,MIC bound,,,BACTEC,H37Rv,,>12.5 µg/mL
CC[C@H]1OC(=O)[C@H](C)[C@@H](O[C@H]2C[C@@](C)(OC)[C@@H](O)[C@H](C)O2)[C@H](C)[C@@H](O[C@@H]2O[C@H](C)C[C@H](N(C)C)[C@H]2O)[C@](C)(OC)C[C@@H](C)C(=O)[C@H](C)[C@@H](O)[C@]1(C)O,MIC,,,,42494,,>4 µg/mL
C=CCNC(=S)N=Nc1c(O)[nH]c2ccc(OC(F)(F)F)cc12,EC90,,,broth dilution / resazurin,H37Rv,,>100 µg/mL
C[C@H](c1ccccc1)N1C/C(=C\c2ccc(Cl)cc2)[C@@]2(ON=C(c3ccccc3)O2)[C@@]2(C1)ON=C(c1ccccc1)[C@@H]2c1ccc(Cl)cc1,MIC,,,,H37Rv,,18.2 µM
CCCNc1nc(-c2ccc(C)cc2)c(C#N)c(=O)[nH]1,MIC,,,,H37Ra,,>50 µg/mL
CC(C)c1oc(=O)cc2c1[C@@H](O)[C@H]1OC(=O)[C@@]3(C)[C@@H](O)[C@H]4O[C@H]4[C@@]2(C)[C@@H]13,MIC,,,BACTEC,H37Rv,,≥12.5 µg/mL
Cc1ccc(/C=C2/CN([C@H](C)c3ccccc3)CC3(ON=C(c4ccc(Cl)cc4)[C@H]3c3ccc(C)cc3)[C@@]23ON=C(c2ccc(Cl)cc2)O3)cc1,MIC,,,,H37Rv,,8.75 µM
Cn1c(=O)cc(Oc2nc(Nc3ccc(C#N)cc3)nc(Nc3ccccn3)n2)c2ccccc21,MIC,,,agar,,,500 µg/mL
CCCCN(C)N=Nc1c(C(N)=O)n[nH]c1C,inhibition,12.5 µg/mL,,BACTEC,H37Rv,,63%
CC(=O)c1c(C)n([O-])c2ccccc2[n+]1=O,MIC,,,,H37Rv,inside macrophages,3.13 µg/mL
Cc1ccc(N=Cc2cc(Cl)cc(Cl)c2OC(=O)c2ccccc2)cc1Cl,MIC bound,,,BACTEC,H37Rv,,>12.5 µg/mL
O=c1oc2ccc(-c3ccccc3)cc2c(O)c1N=Nc1ccccc1[N+](=O)[O-],inhibition,6.25 µg/mL,,resazurin,H37Rv,,25%
COCC(O)CNCCN,inhibition,6.25 µg/mL,,resazurin,H37Rv,,10%
CC(=O)c1c(C)[nH]c(C(=O)N/N=C/c2cccc(Cl)c2)c1C,inhibition,6.25 µg/mL,,resazurin,H37Rv,,29%
Clc1ccccc1-c1c(C(c2ccccc2)n2ccnc2)cnn1-c1ccccc1,MIC50,,,,ATCC 27294,,56.3 µM
CC(=O)c1c(CBr)n([O-])c2cc(Cl)c(Cl)cc2[n+]1=O,EC50,,,BACTEC,H37Rv,,>6.25 µg/mL
COc1ccc(-c2nc(Nc3ccc(F)cc3)[nH]c(=O)c2C#N)cc1,MIC,,,,H37Ra,,>50 µg/mL
Cc1cc2c(cc1C)[n+](=O)c(C(=O)c1ccccc1)c(C)n2[O-],EC50,,,BACTEC,H37Rv,,<6.25 µg/mL
C[C@H](c1ccccc1)N1C[C@@]2(ON=C(c3ccc(Cl)cc3)[C@H]2c2ccccc2Cl)C2(ON=C(c3ccc(Cl)cc3)O2)[C@]2(C1)ON=C(c1ccc(Cl)cc1)[C@H]2c1ccccc1Cl,MIC,,,,,,3.44 µM
COc1cc(C2c3cc4c(cc3C(OC3OC(CO)C(O)C(O)C3O)C3COC(=O)C23)OCO4)cc(OC)c1OC,MIC,,,BACTEC,H37Rv,,≥12.5 µg/mL
Fc1ccc(-n2ncc(C(c3ccccc3)n3ccnc3)c2-c2ccccc2)c(F)c1,MIC50,,,,ATCC 35837 (ethambutol-resistant),,≥100 µM
CCCCCCCCCCCCCCC/C=C\C(=O)N(O)CCCC[C@H](NC(=O)[C@@H]1COC(c2ccccc2O)=N1)C(=O)O[C@@H](C)CC(=O)N[C@H]1CCCCN(O)C1=O,inhibition,12.5 µg/mL,,,H37Rv,,>99%
CN1C(=O)c2ccccc2N(C)C(=O)c2ccccc21,MIC,,,BACTEC,H37Rv,,≥12.5 µg/mL
COc1ccc(N2CCN(Cc3c(C(C)=O)[n+](=O)c4cc(C)c(C)cc4n3[O-])CC2)cc1,inhibition,6.25 µg/mL,,BACTEC,H37Rv,,0%